Results deposited as PubChem BioAssay AID504761 (Drosophila RNAi Screening Center, 2011).
Purpose: 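Genome-wide fly cell screen for genes dengue virus requires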 (primary screen). Cells: D.Mel-2 cells from Drosophila. Reagents: long dsRNA against Drosophila genes. Conditions: infection with dengue virus type 2; dose and infection time not stated. Measured: 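Cells stained for dengue envelope protein and imaged; percent of infected cells per well on duplicate plates, ranked by infection, with stained nuclei counted for cell number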. Scale: infection score: higher = more virus-infected cells. Hit rule: 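Low infection ranks in the two replicates (chance level up to 0.065) followed by a retest with a 1.5-fold or larger significant decrease, p below 0.05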. Calls: active = confirmed: knock-down lowers infection; inactive = not picked or not confirmed.
The screen tested about 22,000 reagents; below is an unselected part of those that have a named target and a result. Of all reagents, 116 (0.52%) are marked active. 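Calls depend on retest data that are not deposited; infection was ranked per plate without normalising between plates; the unit of the infection score is not given.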 Further read-outs or replicates are left out here. Not stated in the record: the amount of reagent, the time to read-out.

| predicted target | DRSC id | infection score, replicate 1 | infection score, replicate 2 | activity call |
| --- | --- | --- | --- | --- |
| ecd (ecdysoneless) | DRSC08574 | 13.4 | 3.98 | inactive |
| CG15429 | DRSC00444 | 3.55 | 10.1 | inactive |
| CG15429 | DRSC26501 | 2.64 | 3.71 | inactive |
| CG30203 | DRSC06690 | 13.9 | 28 | inactive |
| CG30121 (retired record) | DRSC21481 | 3.44 | 9.23 | inactive |
| CG30121 (retired record) | DRSC27254 | 16.7 | 17.5 | inactive |
| CG31278 | DRSC16051 | 4.22 | 6.99 | inactive |
| MTA1-like (Metastasis associated 1-like) | DRSC12382 | 7.13 | 4.66 | inactive |
| MTA1-like (Metastasis associated 1-like) | DRSC22022 | 15.3 | 10.8 | inactive |
| MTA1-like (Metastasis associated 1-like) | DRSC23683 | 3.6 | 3.28 | inactive |
| MTA1-like (Metastasis associated 1-like) | DRSC24944 | 5.22 | 2.63 | inactive |
| LeuRS (Leucyl-tRNA synthetase) | DRSC00581 | 16.1 | 1.54 | inactive |
| CG10660 | DRSC09769 | 4.2 | 5.01 | inactive |
| CG10660 | DRSC29040 | 16.4 | 14 | inactive |
| CG2182 | DRSC12308 | 9.23 | 19.9 | inactive |
| CG2182 | DRSC30052 | 3.67 | 6.71 | inactive |
| Tmtc3 (Transmembrane O-mannosyltransferase targeting cadherins 3) | DRSC04444 | 14.1 | 18.8 | inactive |
| GstE11 (Glutathione S transferase E11) | DRSC06926 | 5.56 | 13.7 | inactive |
| CG33286 | DRSC11691 | 4.95 | 2.79 | inactive |
| CG33286 | DRSC26119 | 7.97 | 9.12 | inactive |
| kairos | DRSC23286 | 3.14 | 19.6 | inactive |
| kairos | DRSC30011 | 15.5 | 14.6 | inactive |
| CG14105 | DRSC10107 | 0.56 | 3.98 | inactive |

Records listed so far whose target name begins with K or k (2):
| predicted target | DRSC id | infection score, replicate 1 | infection score, replicate 2 | activity call |
| --- | --- | --- | --- | --- |
| kairos | DRSC23286 | 3.14 | 19.6 | inactive |
| kairos | DRSC30011 | 15.5 | 14.6 | inactive |
